System: H5N1 (avian) influenza virus
Test: In vitro cell infection assay in MDCK cells, H5N1 (ELISA)
Settings: 0.8 μg/ml

## Cl[TeH]1(Cl)(Cl)OCCO1 [AS101, ammonium trichloro(dioxyethylene-O,O′)tellurate]
24 hours before, concomitantly with, or 24 hours after infection, ELISA 72 hours post-infection
  H5N1 virus infection, each tested administration time: inhibition
Compared with the other administration times
  H5N1 virus infection, administered concomitantly with the virus: strongest inhibition
